Experimental data reported in paper PMC3203922.

Protein sequences, listed by entry. Tags and fused reporters are not part of them. Lines headed by an entry give the natural chain unless they say otherwise; changes in a name come on top.
UniProt P0A2S0: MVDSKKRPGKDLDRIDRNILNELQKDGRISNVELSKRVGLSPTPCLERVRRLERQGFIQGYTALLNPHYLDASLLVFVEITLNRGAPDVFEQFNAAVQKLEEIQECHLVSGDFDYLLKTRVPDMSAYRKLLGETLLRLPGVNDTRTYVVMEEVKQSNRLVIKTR

Experiments:
Lrp [1] = biological target: Lrp (UniProt P0A2S0); assay: EMSA; conditions: 50-150 nM Lrp, Lrp+FimZ EMSA: 5 mM Tris-HCl pH 7.5, 25 mM KCl, 0.5 mM EDTA, 0.5 mM DTT, 5 ug/ml BSA, 20% glycerol, room temperature 15 min, 5% PAGE in TTE, recombinant protein, probe letters rebuilt from the primers and the genome
Lrp [2] = biological target: Lrp (UniProt P0A2S0); assay: DNase I footprinting; conditions: recombinant protein, probe letters rebuilt from the primers and the genome

TGTGGATCCAAGTCAAAGGGGATGACGCTATTTTGTCAGAAGCGGGCCTCGCTGTCAGTTAACGTTTGTGTTTCCGATGCAAACGCGACGTCTCCCCCGTCTGTTGACGATACTGAGACGTGGCCCGTAAGCGCGCCATGATTAACCAAAAAGAAACAATTCATCACCCTGGCTATGGTTACCGTAATCCCTCGTCGTTAATAGCATCGGGCGGCATAATGCAGATCTCCATACAAAATAAGATTAGACCCTTCTTATATCCCAATAAGAATTAGCTTAGGTCATTATAAAGAGTTTGCGGCTATTCTCGAGTTAGCGAAATGTTTAATTTATTACCGTGACGAAATGTCATATTCGCAAAGATTAATTACTGCGTCTGATACTCAGG (double strand) [PfimA1329 (alpha beta)]
binding result (Lrp [1]; indistinguishable from WT): binds

TGTGGATCCAAGTCAAAGGGGATGACGCTATTTTGTCAGAAGCGGGCCTCGCTGTCAGTTAACGTTTGTGTTTCCGATGCAAACGCGACGTCTCCCCCGTCTGTTGACGATACTGAGACGTGGCCCGTAAGCGCGCCATGATTAACCAAAAAGAAACAATTCATCACCCTGGCTATGGTTACCGTAATCCCTCGTCGTTAATAGCATCGGGCGGCATAATGCAGATCTCCATACAAAATAAGATTAGACCCTTCTTATATCCCAATAAGAATTAGCTTAGGTCATTATAAAGAGTTTGCGGCTATTTTTTATTTAGCGAAATGTTTAATTTATTACCGTGACGAAATGTCATATTCGCAAAGATTAATTACTGCGTCTGATACTCAGG (double strand) [PfimA529 (beta)]
binding result (Lrp [1]; indistinguishable from WT): binds

TGTGGATCCAAGTCAAAGGGGATGACGCTATTTTGTCAGAAGCGGGCCTCGCTGTCAGTTAACGTTTGTGTTTCCGATGCAAACGCGACGTCTCCCCCGTCTGTTGACGATACTGAGACGTGGCCCGTAAGCGCGCCATGATTAACCAAAAAGAAACAATTCATCACCCTGGCTATGGTTACCGTAATCCCTCGTCGTTAATAGCATCGGGCGGCATAATGCGACATTTTATACAAAATAAGATTAGACCCTTCTTATATCCCAATAAGAATTAGCTTAGGTCATTATAAAGAGTTTGCGGCTATTCTCGAGTTAGCGAAATGTTTAATTTATTACCGTGACGAAATGTCATATTCGCAAAGATTAATTACTGCGTCTGATACTCAGG (double strand) [PfimA413 (alpha)]
binding result (Lrp [1]; indistinguishable from WT): binds

TGTGGATCCAAGTCAAAGGGGATGACGCTATTTTGTCAGAAGCGGGCCTCGCTGTCAGTTAACGTTTGTGTTTCCGATGCAAACGCGACGTCTCCCCCGTCTGTTGACGATACTGAGACGTGGCCCGTAAGCGCGCCATGATTAACCAAAAAGAAACAATTCATCACCCTGGCTATGGTTACCGTAATCCCTCGTCGTTAATAGCATCGGGCGGCATAATGCGACATTTTATACAAAATAAGATTAGACCCTTCTTATATCCCAATAAGAATTAGCTTAGGTCATTATAAAGAGTTTGCGGCTATTTTTTATTTAGCGAAATGTTTAATTTATTACCGTGACGAAATGTCATATTCGCAAAGATTAATTACTGCGTCTGATACTCAGG (double strand) [PfimA(WT)]
binding result (Lrp [1]; EDTA, no divalent cations, leucine no significant effect): binds | binding result (Lrp [2]; 150, 100, 50 nM Lrp, poly(dI-dC) 10 ug/ml): binds | binding result (Lrp [2]; leucine, no significant effect on footprint): binds

TGTGGATCCAAGTCAAAGGGGATGACTCTAGACCGTCAGAAGCGGGCCTCGCTGTCAGTTAACGTTTGTGTTTCCGATGCAAACGCGACGTCTCCCCCGTCTGTTGACGATACTGAGACGTGGCCCGTAAGCGCGCCATGATTAACCAAAAAGAAACAATTCATCACCCTGGCTATGGTTACCGTAATCCCTCGTCGTTAATAGCATCGGGCGGCATAATGCAGATCTCCATACAAAATAAGATTAGACCCTTCTTATATCCCAATAAGAATTAGCTTAGGTCATTATAAAGAGTTTGCGGCTATTTTTTATTTAGCGAAATGTTTAATTTATTACCGTGACGAAATGTCATATTCGCAAAGATTAATTACTGCGTCTGATACTCAGG (double strand) [PfimA2925 (beta gamma)]
binding result (Lrp [1]; indistinguishable from WT): binds

TGTGGATCCAAGTCAAAGGGGATGACTCTAGACCGTCAGAAGCGGGCCTCGCTGTCAGTTAACGTTTGTGTTTCCGATGCAAACGCGACGTCTCCCCCGTCTGTTGACGATACTGAGACGTGGCCCGTAAGCGCGCCATGATTAACCAAAAAGAAACAATTCATCACCCTGGCTATGGTTACCGTAATCCCTCGTCGTTAATAGCATCGGGCGGCATAATGCGACATTTTATACAAAATAAGATTAGACCCTTCTTATATCCCAATAAGAATTAGCTTAGGTCATTATAAAGAGTTTGCGGCTATTCTCGAGTTAGCGAAATGTTTAATTTATTACCGTGACGAAATGTCATATTCGCAAAGATTAATTACTGCGTCTGATACTCAGG (double strand) [PfimA1325 (alpha gamma)]
binding result (Lrp [1]; indistinguishable from WT): binds

TGTGGATCCAAGTCAAAGGGGATGACTCTAGACCGTCAGAAGCGGGCCTCGCTGTCAGTTAACGTTTGTGTTTCCGATGCAAACGCGACGTCTCCCCCGTCTGTTGACGATACTGAGACGTGGCCCGTAAGCGCGCCATGATTAACCAAAAAGAAACAATTCATCACCCTGGCTATGGTTACCGTAATCCCTCGTCGTTAATAGCATCGGGCGGCATAATGCGACATTTTATACAAAATAAGATTAGACCCTTCTTATATCCCAATAAGAATTAGCTTAGGTCATTATAAAGAGTTTGCGGCTATTTTTTATTTAGCGAAATGTTTAATTTATTACCGTGACGAAATGTCATATTCGCAAAGATTAATTACTGCGTCTGATACTCAGG (double strand) [PfimA1225 (gamma)]
binding result (Lrp [1]; indistinguishable from WT): binds

The exact form of at least one protein or probe is not confirmed.
